For 2 sequences, half-maximal binding results are on record in publication PMC5531588, “Staphylococcus aureus single-stranded DNA-binding protein SsbA can bind but cannot stimulate PriA helicase”.

The exact form of at least one protein or probe is not confirmed. Where a protein sequence is shown, tags need not be part of it. Some results are limits rather than exact numbers.

This data set deals with T1, SaSsbA (Staphylococcus aureus subsp. aureus ED98) (UniProt A0A0D1JHQ1).
T1 sequence (looked up, limits assumed): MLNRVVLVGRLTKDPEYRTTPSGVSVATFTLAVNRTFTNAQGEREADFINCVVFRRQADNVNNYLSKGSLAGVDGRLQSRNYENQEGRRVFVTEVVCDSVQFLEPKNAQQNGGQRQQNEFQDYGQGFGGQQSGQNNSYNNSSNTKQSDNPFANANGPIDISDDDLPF
Nature of the data set: EMSA. The following applies: EMSA: 20 mM Tris-HCl pH 8.0, 100 mM NaCl (or 0.4 M NaCl), 1.7 nM DNA, 25 C, 30 min, native 8% PAGE in TBE at 4 C, recombinant protein, label: 32P (5' end, T4 PNK), single-stranded DNA. In general terms: A gel shift assay detects complexes by their altered migration in electrophoresis.

Turning to TTTTTTTTTTTTTTT [dT15], the half-maximal binding (100 mM NaCl) is greater than 2000 nM.

Turning to “TTTTTTTTTTTTTTTTTTTTTTTTTTTTTTTTTTTTTTTT [dT40]”, the half-maximal binding (0.4 M NaCl) was determined as 180 nM.
